# Measurements taken from paper PMC11496496, “Molecular architecture of monkeypox mature virus” (2024).
# Target: MPXV A10 (palisade protein of the viral core) (monkeypox virus)
# Assay: cryo-EM structure
substance,measurement,value
MPXV A10 (palisade protein of the viral core) (natural protein),stoichiometry N,3
